Molecular target: 2G12
Assay: Binding curve and KD determination of 2G12-glycopeptide interaction (radiolabeled glycopeptide, protein G magnetic bead capture, scintillation counting)
Settings: Table 4; ribosomally translated radiolabeled glycopeptide with His6/FLAG tag, room temperature, fit Fbound=(Fmax[2G12])/(KD+[2G12]); error = standard error of fit
Experimental: The resulting mRNAs were purified by denaturing PAGE or MEGAclear kit (Ambion), and 1 μM RNA was used in PURE system translation (reaction volume of translation varied). Typically, 25 μL of translated reaction was diluted with 100 μL of binding buffer (50 mM Tris-HCl, pH 7.8, 300 mM NaCl, 5 mM β-mercaptoethanol) and 25 μL of Ni-NTA agarose suspension (Qiagen), and tumbled at room temperature for 1 h. The resins were transferred to 0.22 μm spin-filter rinsing with 100 μL of bind buffer, and washed with 3×200 μL of bind buffer and 2×200 μL of wash buffer (50 mM Tris-HCl, pH 7.8, 5 mM β-mercaptoethanol). The bound peptides were eluted with 2×25 μL of 0.1% TFA. The eluted peptides were analyzed by MALDI-TOF MS, using α-Cyano-4-hydroxycinnamic acid matrix (Sigma), with or without desalting with ZipTip C18 resin (Millipore). […] To quantitate peptide yields, the radioactivities were measured by liquid scintillation counting. […]
Then, the solution was added to 0.12 mg of pre-equilibrated Dynabeads Protein G and tumbled at room temperature for 30 min. […] The radioactivities of the supernatant and wash solutions were measured by liquid scintillation counting as unbound fractions. […] The radioactivities of these solutions and suspensions were measured by liquid scintillation counting separately and the values were combined as apparent bound fractions. […]

CC[C@H](C)[C@H](NC(=O)[C@H](CCCNC(=N)N)NC(=O)[C@H](CC(N)=O)NC(=O)CNC(=O)[C@H](CC(N)=O)NC(=O)[C@H](CC(C)C)NC(=O)[C@H](CCCCN)NC(=O)[C@H](CS)NC(=O)[C@H](CCCCN)NC(=O)[C@H](CC(C)C)NC(=O)[C@@H](NC(=O)[C@@H](NC(=O)[C@@H](NC(=O)[C@@H](NC(=O)[C@H](C)NC(=O)[C@H](CCc1cn(C2CCC(OC3O[C@H](CO[C@H]4O[C@H](CO[C@H]5O[C@H](CO)[C@@H](O)[C@H](O)[C@@H]5O[C@H]5O[C@H](CO)[C@@H](O)[C@H](O)[C@@H]5O)[C@@H](O)[C@H](O[C@H]5O[C@H](CO)[C@@H](O)[C@H](O)[C@@H]5O[C@H]5O[C@H](CO)[C@@H](O)[C@H](O)[C@@H]5O)[C@@H]4O)[C@@H](O)[C@H](O[C@H]4O[C@H](CO)[C@@H](O)[C@H](O)[C@@H]4O[C@H]4O[C@H](CO)[C@@H](O)[C@H](O)[C@@H]4O[C@H]4O[C@H](CO)[C@@H](O)[C@H](O)[C@@H]4O)[C@@H]3O)CC2)nn1)NC(=O)[C@@H]1CCCN1C(=O)[C@H](CCCCN)NC(=O)[C@H](CO)NC(=O)[C@H](Cc1ccc(O)cc1)NC(=O)[C@H](CC(C)C)NC(=O)[C@H](CC(N)=O)NC(=O)[C@H](CCc1cn(C2CCC(OC3O[C@H](CO[C@H]4O[C@H](CO[C@H]5O[C@H](CO)[C@@H](O)[C@H](O)[C@@H]5O[C@H]5O[C@H](CO)[C@@H](O)[C@H](O)[C@@H]5O)[C@@H](O)[C@H](O[C@H]5O[C@H](CO)[C@@H](O)[C@H](O)[C@@H]5O[C@H]5O[C@H](CO)[C@@H](O)[C@H](O)[C@@H]5O)[C@@H]4O)[C@@H](O)[C@H](O[C@H]4O[C@H](CO)[C@@H](O)[C@H](O)[C@@H]4O[C@H]4O[C@H](CO)[C@@H](O)[C@H](O)[C@@H]4O[C@H]4O[C@H](CO)[C@@H](O)[C@H](O)[C@@H]4O)[C@@H]3O)CC2)nn1)NC(=O)[C@@H](NC(=O)[C@@H](NC(=O)[C@H](CO)NC(=O)[C@@H]1CCCN1C(=O)[C@@H](NC(=O)[C@H](CC(N)=O)NC(=O)[C@H](CCCCN)NC(=O)[C@H](Cc1ccc(O)cc1)NC(=O)[C@H](CCc1cn(C2CCC(OC3O[C@H](CO[C@H]4O[C@H](CO[C@H]5O[C@H](CO)[C@@H](O)[C@H](O)[C@@H]5O[C@H]5O[C@H](CO)[C@@H](O)[C@H](O)[C@@H]5O)[C@@H](O)[C@H](O[C@H]5O[C@H](CO)[C@@H](O)[C@H](O)[C@@H]5O[C@H]5O[C@H](CO)[C@@H](O)[C@H](O)[C@@H]5O)[C@@H]4O)[C@@H](O)[C@H](O[C@H]4O[C@H](CO)[C@@H](O)[C@H](O)[C@@H]4O[C@H]4O[C@H](CO)[C@@H](O)[C@H](O)[C@@H]4O[C@H]4O[C@H](CO)[C@@H](O)[C@H](O)[C@@H]4O)[C@@H]3O)CC2)nn1)NC=O)[C@@H](C)CC)[C@@H](C)O)[C@@H](C)O)[C@@H](C)O)C(C)C)[C@@H](C)O)[C@@H](C)O)C(=O)N[C@@H](CO)C(=O)NCC(=O)N[C@@H](CO)C(=O)NCC(=O)N[C@@H](CO)C(=O)N[C@@H](CC(C)C)C(=O)NCC(=O)N[C@@H](Cc1c[nH]cn1)C(=O)N[C@@H](Cc1c[nH]cn1)C(=O)N[C@@H](Cc1c[nH]cn1)C(=O)N[C@@H](Cc1c[nH]cn1)C(=O)N[C@@H](Cc1c[nH]cn1)C(=O)N[C@@H](Cc1c[nH]cn1)C(=O)N[C@@H](CCCNC(=N)N)C(=O)N[C@@H](CC(=O)O)C(=O)N[C@@H](Cc1ccc(O)cc1)C(=O)N[C@@H](CCCCN)C(=O)N[C@@H](CC(=O)O)C(=O)N[C@@H](CC(=O)O)C(=O)N[C@@H](CC(=O)O)C(=O)N[C@@H](CC(=O)O)C(=O)N[C@@H](CCCCN)C(=O)O (stereo partly shown) [Clone 12G, KYKNIPSTTXNLYSKPXATVTTLKCKLNGNRIS]
Kd: > 128 nM
